Measured values: ChEMBL document CHEMBL1125714, “Novel class of amino acid antagonists at non-N-methyl-D-aspartic acid excitatory amino acid receptors. Synthesis, in vitro and in vivo pharmacology, and neuroprotection” (J Med Chem, 1991)

Tests used:
Rattus norvegicus [1] = organism: Rattus norvegicus; test: Neuroprotective effect evaluated for excitatory amino acid receptor antagonism with the concentration at 1 uL in the corpus striatum of 10 rats with choline acetyltransferase as the marker enzyme.
Rattus norvegicus [2] = organism: Rattus norvegicus; test: Neuroprotective effect evaluated for excitatory amino acid receptor antagonism with the concentration at 1 uL in the corpus striatum of 10 rats with glutamic acid decarboxylase as the marker enzyme.

Row | SMILES | Enzyme activity (Rattus norvegicus [1]) [%] | Enzyme activity (Rattus norvegicus [2]) [%]
1 | C=C(C)[C@H]1CN[C@H](C(=O)O)[C@H]1CC(=O)O.Cc1onc(O)c1Cn1oc(C)c(CC(N)C(=O)O)c1=O (centres undefined) | 87 | 68
2 | C=C(C)[C@H]1CN[C@H](C(=O)O)[C@H]1CC(=O)O.Cc1onc(OCC(=O)O)c1CC(N)C(=O)O (centres undefined) [KAINIC ACID] | 90 | 102
